Data as given in US11299506B2, “Acylnucleoside phosphonates, prodrugs thereof and use thereof as medicament” (UNIVERSITE DE MONTPELLIER, priority 2017, dated 2022).

Tested on: Plasmodium falciparum (strain 3D7)
Test: In vitro anti-Plasmodium falciparum activity (infected erythrocytes, radioactive precursor incorporation)
Assay type: cell-based
Protocol: After 48 h of incubation in the absence (control) or in the presence of the compound to be tested, the radioactive precursor is added, and the reaction is continued for another 18 h, then stopped by freezing at −80° C. The macromolecules, including the radiolabeled nucleic acids, are collected on a filter. The incorporated radioactivity is measured with the scintillation counter after addition of scintillation cocktail. The radioactive background noise is measured based on a suspension of healthy erythrocytes (same conditions as for parasite-containing suspensions). The viability of the parasites is expressed as a (nonspecific derived) percentage of the control. […] The IC50 values thus determined are the result of at least two experiments carried out independently in duplicate. Batches A and B correspond to two different syntheses according to the same procedure and carried out in their totality by two different operators, at a six month interval.

In the case of “N-9[(2S)-2-hydroxy-4-phosphonobutyl]adenine”, the pIC50 (read-out: Activity against P. falciparum (3D7), detection 3H-Ethanolamine, Batch A IC50, 3H-ethanolamine detection, 48 h contact) was less than 3.00 and the pIC50 (read-out: Activity against P. falciparum (3D7), detection 3H-Hypoxanthine, Batch A IC50, 3H-hypoxanthine detection, 48 h contact) was less than 3.00.

pIC50: −log10 of the molar value. Where two headings read alike, the source gives them in different places.
